# Where two headings read alike, the source gives them in different places.
# B1: A46 + E12 + B8 + E8 (other)
# VH 1: QVQLVESGGGVVQPGRSLRLSCAASGFTLSSYGMHWVRQAPGKGLEWVAVISYDGSNKYYVDSVKGRFTISRDNSKNTLYLQMNSLRAEDTAVYYCRWAYWELLPDYYYGMDVWGQGTTVTVSS
# VL 1: QTVVTQEPSFSVSPGGTVTLTCGLSSGSVSTAYFPSWYQQTPGQAPRTLIYGTNTRSSGVPDRFSGSILGNKAALTITGAQADDESDYYCVLYMGRGIVVFGGGTKLTVL
# VH 2: EVQLVESGGGLIQPGGSLRLSCAASGVIVSYNYMNWVRQAPGKGLEWVSVIYSGGSTFYADSVRGRFTISRDNSKNTLYLQMNSLRAEDTAVYYCARDLGPAGAFDIWGLGTMVTVSS
# VL 2: EIVLTQSPGTLSLSPGETATLSCRASQSFSSDLAWYQQKPGQAPRLLIYGASSRATGIPDRFSGSGSGTDFTLTISRLEPADFAVYYCQQYGSSPPVTFGGGTKVEIK
# VH 3: EVQLVESGGALIQPGGSLRLSCAASGIIVSANYMSWVRQAPGKGLEWVSVIYSGGSTFYADSVKGRFTISRDNSKNTLYLEMNSLRAEDTAVYYCARDAPILGVSDWGQGTLVTVSS
# VL 3: EIVMTQSPAILSVSPGERATLSCRASQSVAINLAWYQQKPGQAPRLLIYAASSRATGIPGRFSGSGSETNFTLTISSLQSGDFAVYYCQQYITWPPSYTFGQGTKLEIK
# VH 4: QVTLRESGPALVKPTQTLTLTCTFSGFSLSTRGVCVSWIRQPPGKALEWLAFIDWDDDKYYNTSLKTRLTISKDTSKNQVVLTMTNVHPVDTATYYCARISSHHGSSWCTTFDYWGQGALVTVSA
# VL 4: DTVMTQSPLSLPVTPGEPASISCRSSQSLLNSNGYNYLDWYVQKPGQSPQLLIYLGSNRASGVPDRFSGSGSGTDFTLKISRVEAEDVGVYYCMQPLQTPLFTFGPGTKVEIK
# B2: MX1018 (antibody)
# chain: EIVMTQSPAILSVSPGERATLSCRASQSVAINLAWYQQKPGQAPRLLIYAASSRATGIPGRFSGSGSETNFTLTISSLQSGDFAVYYCQQYITWPPSYTFGQGTKLEIKGGSSGEIVMTQSPAILSVSPGERATLSCRASQSVAINLAWYQQKPGQAPRLLIYAASSRATGIPGRFSGSGSETNFTLTISSLQSGDFAVYYCQQYITWPPSYTFGQGTKLEIKGGGGSGGSGSGGGGSASGSGEVQLVESGGALIQPGGSLRLSCAASGIIVSANYMSWVRQAPGKGLEWVSVIYSGGSTFYADSVKGRFTISRDNSKNTLYLEMNSLRAEDTAVYYCARDAPILGVSDWGQGTLVTVSSGGSSGEVQLVESGGALIQPGGSLRLSCAASGIIVSANYMSWVRQAPGKGLEWVSVIYSGGSTFYADSVKGRFTISRDNSKNTLYLEMNSLRAEDTAVYYCARDAPILGVSDWGQGTLVTVSSASGGSGDKTHTCPPCPAPELLGGPSVFLFPPKPKDTLMISRTPEVTCVVVDVSHEDPEVKFNWYVDGVEVHNAKTKPREEQYNSYVVSVLTVLHQDWLNGKEYKCKVSNKALPAPIEKTISKAKGQPREPQVYTLPPSRDELTKNQVSLTCLVKGFYPSDIAVEWESNGQPENNYKTTPPVLDSDGSFFKKLTVDKSRWQQGNVFSCSVLHEALHSHYTQKSLSLSPG
# B3: MX1055 (trispecific antibody)
# chain 1: EIVMTQSPAILSVSPGERATLSCRASQSVAINLAWYQQKPGQAPRLLIYAASSRATGIPGRFSGSGSETNFTLTISSLQSGDFAVYYCQQYITWPPSYTFGQGTKLEIKGGSSGDTVMTQSPLSLPVTPGEPASISCRSSQSLLNSNGYNYLDWYVQKPGQSPQLLIYLGSNRASGVPDRFSGSGSGTDFTLKISRVEAEDVGVYYCMQPLQTPLFTFGPGTKVEIKGGGGSGGSGSGGGGSASGSGQVTLRESGPALVKPTQTLTLTCTFSGFSLSTRGVCVSWIRQPPGKALEWLAFIDWDDDKYYNTSLKTRLTISKDTSKNQVVLTMTNVHPVDTATYYCARISSHHGSSWCTTFDYWGQGALVTVSAGGSSGEVQLVESGGALIQPGGSLRLSCAASGIIVSANYMSWVRQAPGKGLEWVSVIYSGGSTFYADSVKGRFTISRDNSKNTLYLEMNSLRAEDTAVYYCARDAPILGVSDWGQGTLVTVSSASGGSGDKTHTCPPCPAPELLGGPSVFLFPPKPKDTLMISRTPEVTCVVVDVSHEDPEVKFNWYVDGVEVHNAKTKPREEQYNSYVVSVLTVLHQDWLNGKEYKCKVSNKALPAPIEKTISKAKGQPREPQVYTLPPCRDELTKNQVSLWCLVKGFYPSDIAVEWESNGQPENNYKTTPPVLDSDGSFFKKLTVDKSRWQQGNVFSCSVLHEALHSHYTQKSLSLSPG
# chain 2: DTVMTQSPLSLPVTPGEPASISCRSSQSLLNSNGYNYLDWYVQKPGQSPQLLIYLGSNRASGVPDRFSGSGSGTDFTLKISRVEAEDVGVYYCMQPLQTPLFTFGPGTKVEIKGGSSGQTVVTQEPSFSVSPGGTVTLTCGLSSGSVSTAYFPSWYQQTPGQAPRTLIYGTNTRSSGVPDRFSGSILGNKAALTITGAQADDESDYYCVLYMGRGIVVFGGGTKLTVLGGGGSGGSGSGGGGSASGSGQVQLVESGGGVVQPGRSLRLSCAASGFTLSSYGMHWVRQAPGKGLEWVAVISYDGSNKYYVDSVKGRFTISRDNSKNTLYLQMNSLRAEDTAVYYCRWAYWELLPDYYYGMDVWGQGTTVTVSSGGSSGQVTLRESGPALVKPTQTLTLTCTFSGFSLSTRGVCVSWIRQPPGKALEWLAFIDWDDDKYYNTSLKTRLTISKDTSKNQVVLTMTNVHPVDTATYYCARISSHHGSSWCTTFDYWGQGALVTVSAASGGSGDKTHTCPPCPAPELLGGPSVFLFPPKPKDTLMISRTPEVTCVVVDVSHEDPEVKFNWYVDGVEVHNAKTKPREEQYNSYVVSVLTVLHQDWLNGKEYKCKVSNKALPAPIEKTISKAKGQPREPQVCTLPPSRDELTKNQVSLSCAVKGFYPSDIAVEWESNGQPENNYKTTPPVLDSDGSFFLVSKLTVDKSRWQQGNVFSCSVLHEALHSHYTQKSLSLSPG
# B4: MX1043 (bispecific antibody)
# chain: EIVLTQSPGTLSLSPGETATLSCRASQSFSSDLAWYQQKPGQAPRLLIYGASSRATGIPDRFSGSGSGTDFTLTISRLEPADFAVYYCQQYGSSPPVTFGGGTKVEIKGGSSGQTVVTQEPSFSVSPGGTVTLTCGLSSGSVSTAYFPSWYQQTPGQAPRTLIYGTNTRSSGVPDRFSGSILGNKAALTITGAQADDESDYYCVLYMGRGIVVFGGGTKLTVLGGGGSGGSGSGGGGSASGSGQVQLVESGGGVVQPGRSLRLSCAASGFTLSSYGMHWVRQAPGKGLEWVAVISYDGSNKYYVDSVKGRFTISRDNSKNTLYLQMNSLRAEDTAVYYCRWAYWELLPDYYYGMDVWGQGTTVTVSSGGSSGEVQLVESGGGLIQPGGSLRLSCAASGVIVSYNYMNWVRQAPGKGLEWVSVIYSGGSTFYADSVRGRFTISRDNSKNTLYLQMNSLRAEDTAVYYCARDLGPAGAFDIWGLGTMVTVSSASGGSGDKTHTCPPCPAPELLGGPSVFLFPPKPKDTLMISRTPEVTCVVVDVSHEDPEVKFNWYVDGVEVHNAKTKPREEQYNSYVVSVLTVLHQDWLNGKEYKCKVSNKALPAPIEKTISKAKGQPREPQVYTLPPSRDELTKNQVSLTCLVKGFYPSDIAVEWESNGQPENNYKTTPPVLDSDGSFFKKLTVDKSRWQQGNVFSCSVLHEALHSHYTQKSLSLSPG
# Legend:
# Experiment in all cases: cell-based or functional assay
# [1] = molecular target: T1, SARS-CoV-2 spike (S) protein, Omicron sublineage BA.2.75.2 (SARS-CoV-2)
# [2] = molecular target: T2, SARS-CoV-2 spike (S) protein, Omicron sublineage XBB (SARS-CoV-2)
# [3] = molecular target: SARS-CoV-2 Omicron BF.7 spike protein (SARS-CoV-2, UniProt P0DTC2 14-1273)
# [4] = molecular target: SARS-CoV-2 Omicron BA.4.6 spike protein (SARS-CoV-2, UniProt P0DTC2 14-1273)
# [5] = molecular target: SARS-CoV-2 Omicron BA.2.75.2 spike protein (SARS-CoV-2, UniProt P0DTC2 14-1273)
# [6] = molecular target: SARS-CoV-2 Omicron XBB spike protein (SARS-CoV-2, UniProt P0DTC2 14-1273)
# [7] = molecular target: SARS-CoV-2 Omicron BQ.1.1 spike protein (SARS-CoV-2, UniProt P0DTC2 14-1273)
# [8] = molecular target: SARS-CoV-2 Omicron BA.4/5 spike protein (SARS-CoV-2, UniProt P0DTC2 14-1273)
# [9] = molecular target: SARS-CoV-2 spike (S) protein, Omicron sublineage BA.4/5 (SARS-CoV-2)
# [10] = molecular target: T1, SARS-CoV-2 spike (S) protein, Omicron …; remark: listed apart in the source
# [11] = molecular target: T2, SARS-CoV-2 spike (S) protein, Omicron …; remark: listed apart in the source
# [12] = molecular target: SARS-CoV-2 spike (S) protein, Omicron sublineage XBB1.5 (SARS-CoV-2)
# [13] = molecular target: SARS-CoV-2 spike (S) protein, Omicron sublineage CH.1.1 (SARS-CoV-2)
# [14] = molecular target: SARS-CoV-2 spike (S) protein, Omicron sublineage BQ.1.1 (SARS-CoV-2)
# [15] = molecular target: SARS-CoV-2 spike (S) protein, Omicron sublineage BQ.1 (SARS-CoV-2)
# [16] = molecular target: SARS-CoV-2 Omicron BA.4/5 spike protein (SARS-CoV-2)
# [17] = molecular target: SARS-CoV-2 Omicron BQ.1 spike protein (SARS-CoV-2)
# [18] = molecular target: SARS-CoV-2 Omicron XBB1.5 spike protein (SARS-CoV-2)
# [19] = molecular target: SARS-CoV-2 Omicron BA.2.75.2 spike protein (SARS-CoV-2)
# [20] = molecular target: SARS-CoV-2 Omicron XBB spike protein (SARS-CoV-2)
# [21] = molecular target: SARS-CoV-2 Omicron BQ.1.1 spike protein (SARS-CoV-2)
# [22] = molecular target: SARS-CoV-2 Omicron CH.1.1 spike protein (SARS-CoV-2)
binder,measurement,setting,value
B1,"IC80, pseudovirus neutralization",[1],6.93 nM
same,"IC50, pseudovirus neutralization",[2],5.95 nM
same,"IC80, pseudovirus neutralization",[2],16.6 nM
B2,"IC50, pseudovirus neutralization",[3],0.0066 µg/mL
same,"IC80, pseudovirus neutralization",[3],0.0201 µg/mL
same,"IC50, pseudovirus neutralization",[4],0.00409 µg/mL
same,"IC80, pseudovirus neutralization",[4],0.011 µg/mL
same,"IC50, pseudovirus neutralization",[5],0.00409 µg/mL
same,"IC80, pseudovirus neutralization",[5],0.011 µg/mL
same,"IC50, pseudovirus neutralization",[6],0.0066 µg/mL
same,"IC80, pseudovirus neutralization",[6],0.0201 µg/mL
same,"IC50, pseudovirus neutralization",[7],0.00433 µg/mL
same,"IC80, pseudovirus neutralization",[7],0.0119 µg/mL
same,"IC50, pseudovirus neutralization",[8],0.0107 µg/mL
same,"IC80, pseudovirus neutralization",[8],0.0581 µg/mL
B3,"IC50, pseudovirus neutralization",[9],0.0013 µg/mL
same,"IC80, pseudovirus neutralization",[9],0.00332 µg/mL
same,"IC50, pseudovirus neutralization",[10],0.00232 µg/mL
same,"IC80, pseudovirus neutralization",[10],0.00723 µg/mL
same,"IC50, pseudovirus neutralization",[11],0.00839 µg/mL
same,"IC80, pseudovirus neutralization",[11],0.0327 µg/mL
same,"IC50, pseudovirus neutralization",[12],0.0236 µg/mL
same,"IC80, pseudovirus neutralization",[12],0.0679 µg/mL
same,"IC50, pseudovirus neutralization",[13],0.125 µg/mL
same,"IC80, pseudovirus neutralization",[13],0.862 µg/mL
same,"IC50, pseudovirus neutralization",[14],0.00012 µg/mL
same,"IC80, pseudovirus neutralization",[14],0.00341 µg/mL
same,"IC50, pseudovirus neutralization",[15],0.016 µg/mL
same,"IC80, pseudovirus neutralization",[15],0.0606 µg/mL
B4,"IC50, pseudovirus neutralization",[16],0.00374 µg/mL
same,"IC80, pseudovirus neutralization",[16],0.0107 µg/mL
same,"IC50, pseudovirus neutralization",[17],0.00264 µg/mL
same,"IC80, pseudovirus neutralization",[17],0.0151 µg/mL
same,"IC50, pseudovirus neutralization",[18],0.0687 µg/mL
same,"IC80, pseudovirus neutralization",[18],0.155 µg/mL
same,"IC50, pseudovirus neutralization",[19],0.00206 µg/mL
same,"IC80, pseudovirus neutralization",[19],0.00401 µg/mL
same,"IC50, pseudovirus neutralization",[20],0.00217 µg/mL
same,"IC80, pseudovirus neutralization",[20],0.00705 µg/mL
same,"IC50, pseudovirus neutralization",[21],0.00235 µg/mL
same,"IC80, pseudovirus neutralization",[21],0.0123 µg/mL
same,"IC50, pseudovirus neutralization",[22],0.045 µg/mL
same,"IC80, pseudovirus neutralization",[22],0.232 µg/mL

# Source: US20240109955A1 (published 2024)
